From patent publication US20240317834A1, “COMPOSITIONS AND METHODS FOR NEUROLOGICAL DISEASES” (CODA BIOTHERAPEUTICS, published 2024) come the findings set out here.

Changes are numbered by the printed parent chain.

The target in assay [1] is T1, CODA1054 (R101M, L131F in SEQ ID NO: 33) (human (chimera of human α7-nAChR and …)).
T1 chain: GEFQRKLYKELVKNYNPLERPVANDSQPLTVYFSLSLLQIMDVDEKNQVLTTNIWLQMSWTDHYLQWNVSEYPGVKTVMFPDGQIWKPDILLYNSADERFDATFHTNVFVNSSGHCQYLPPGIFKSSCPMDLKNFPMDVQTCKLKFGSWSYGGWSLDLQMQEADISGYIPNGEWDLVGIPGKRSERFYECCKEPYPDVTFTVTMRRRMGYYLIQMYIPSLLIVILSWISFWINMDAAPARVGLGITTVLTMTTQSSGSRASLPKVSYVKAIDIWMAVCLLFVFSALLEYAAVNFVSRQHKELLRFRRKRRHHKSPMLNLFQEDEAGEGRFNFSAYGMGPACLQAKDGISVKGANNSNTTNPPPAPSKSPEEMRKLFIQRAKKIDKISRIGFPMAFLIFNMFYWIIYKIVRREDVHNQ

Assay [2] addresses T2, CODA333 (L131S in SEQ ID NO: 33) (human (chimera of human α7-nAChR and …)).
T2 chain: T1 chain with M79R, F109S

Assay [3] addresses T3, CODA339 (L131D in SEQ ID NO: 33) (human (chimera of human α7-nAChR and …)).
T3 chain: T1 chain with M79R, F109D

Assay [4] concerns the target T4, CODA536 (L131D, S172D in SEQ ID NO: 33) (human (chimera of human α7-nAChR and …)).
T4 chain: T1 chain with M79R, F109D, S150D

Assay [5] has as its target T5, CODA1045 (R101W, Y210V in SEQ ID NO: 33) (human (chimera of human α7-nAChR and …)).
T5 chain: T1 chain with M79W, F109L, Y188V

The target in assay [6] is T6, CODA535 (L131T, S172D in SEQ ID NO: 33) (human (chimera of human α7-nAChR and …)).
T6 chain: T1 chain with M79R, F109T, S150D

B1: α-bungarotoxin conjugated to Alexa Fluor 647 (ligand)
chain: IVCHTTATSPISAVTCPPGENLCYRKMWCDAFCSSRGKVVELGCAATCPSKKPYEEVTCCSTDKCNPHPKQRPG
B1: the “Normalized AB %” value in assay [1] is 0.82 ratio to SEQ ID NO: 33 control; in assay [2], 1.28 ratio to SEQ ID NO: 33 control; in assay [4], 0.48 ratio to SEQ ID NO: 33 control; in assay [5] it was 0.03 ratio to SEQ ID NO: 33 control; with CODA1072 it was 0.51 ratio to SEQ ID NO: 33 control. The “Normalized AB MFI” value in assay [2] is 1.2 ratio to SEQ ID NO: 33 control; in assay [3] it was 1.41 ratio to SEQ ID NO: 33 control; in assay [4], 0.87 ratio to SEQ ID NO: 33 control; in the assay with CODA1073, 0.7 ratio to SEQ ID NO: 33 control; with CODA1072 it was 0.69 ratio to SEQ ID NO: 33 control; in assay [6] it was 0.72 ratio to SEQ ID NO: 33 control.
